The values below come from paper PMC4703992, “Crystal structures of Mycobacterium tuberculosis HspAT and ArAT reveal structural basis of their distinct substrate specificities” (Scientific Reports, 2016).

Common to all, as to assay: purified protein
Common to all, as to conditions: pH 8.4; 37.0 °C

Data set [1] relates to N[C@@H](Cc1c[nH]c2ccccc12)C(=O)O.
A further data set relates to N[C@@H](Cc1ccccc1)C(=O)O.
For data set [2], the system named is N[C@@H](Cc1ccc(O)cc1)C(=O)O.

For the substance “mArAT (Mycobacterium tuberculosis H37Rv)”, in data set [1], the Michaelis-Menten constant (Km) is listed as 6.26 ± 0.43 mM and the catalytic efficiency (kcat/Km) was 154000 M⁻¹ s⁻¹. In the data set with N[C@@H](Cc1ccccc1)C(=O)O, the Km is given as 0.036 ± 0.001 mM and the kcat/Km came to 9.7e+06 M⁻¹ s⁻¹.
As to “mHspAT (Mycobacterium tuberculosis H37Rv)”, in data set [2], the Km worked out at 9.76 ± 0.69 mM and the kcat/Km came out at 320000 M⁻¹ s⁻¹.

In general, Km refers to the substrate concentration at which the rate is half of its maximum. For orientation: kcat/Km means the turnover number divided by the Michaelis constant.
